# Reference: PubChem BioAssay (NCI)
# Only a part is listed here, and it is no random draw.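 48-hour exposure, single concentration, 96-well plates; percent growth endpoint where 0 means no net growth. Active: below 10.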 Calls of active or inactive are those of the source.
# System: MDA-MB-468 breast
# Assay: NCI-60 one-dose screen, 48 h (100 = growth as untreated, 0 = no growth, -100 = all killed)
# Conditions: 10 µM
compound,measurement,value
O=C(O)Cc1ccc(N(CCCl)CCCl)cc1,growth,inactive: 105%
